The results in this text go back to PMC10308904, “The Cytomegalovirus M35 Protein Directly Binds to the Interferon-β Enhancer and Modulates Transcription of Ifnb1 and Other IRF3-Driven Genes”.

This data set addresses T1, M35_S (UniProt D3XDM4).
T1 sequence (looked up): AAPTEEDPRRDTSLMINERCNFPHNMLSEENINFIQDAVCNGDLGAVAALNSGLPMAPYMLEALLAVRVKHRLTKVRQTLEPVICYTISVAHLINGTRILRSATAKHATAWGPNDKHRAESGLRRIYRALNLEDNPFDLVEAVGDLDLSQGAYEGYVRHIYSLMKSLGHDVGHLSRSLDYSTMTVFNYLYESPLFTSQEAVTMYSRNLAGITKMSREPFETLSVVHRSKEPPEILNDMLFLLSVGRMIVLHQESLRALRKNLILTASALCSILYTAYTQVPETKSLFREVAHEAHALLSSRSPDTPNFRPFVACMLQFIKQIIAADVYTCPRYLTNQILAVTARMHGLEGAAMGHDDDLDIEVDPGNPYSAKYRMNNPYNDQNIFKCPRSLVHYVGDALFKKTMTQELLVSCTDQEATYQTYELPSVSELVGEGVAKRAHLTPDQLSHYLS
In words: competition with a labelled probe. To be noted: 100x excess vs Bio-IFNb; recombinant protein; residues 2-452.

The exact form of at least one protein or probe is not confirmed. Tags and fusion partners may be left off the protein sequences shown.

In the case of “TAAATGACATAGGAAAACTGAAAGGGAGAAGTGAAAGTGGGAAATTCCTCTGAATAG / ACTATTCAGAGGAATTTCCCACTTTCACTTCTCCCTTTCAGTTTTCCTATGTCATTT [hIFNb unlabeled competitor]”, the binding result was “binds”.
